The source of these data is PMC11106956, “Population pharmacokinetics of primaquine and its metabolites in African males” (Malaria Journal, 2024).

For this series the following is noted: plasma; single oral PQ 0.40-0.50 mg/kg.

Take Primaquine carbamoyl-glucuronide: the “CF, proportional conversion factor between capillary and venous drug measurements, population estimate (%RSE)” value is 40.1 (6.97%).
